Laboratory results: PubChem BioAssay AID624099 (ICCB-Longwood, 2012)
The whole screen tested about 21,000 reagents; this is a part drawn at random. 497 of them (2.4%) were called active. 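Higher z means weaker E2 silencing; only reporter increases were scored, and knock-downs that hurt cell survival may mask genuine repressor factors.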 Reagents against one gene are numbered here. No sequences are given here.

Aim: 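Knock-downs relieving repression by E2 of an HPV18 LCR luciferase reporter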 (primary screen)
System: human C33A cervical carcinoma cells (HPV-negative) stably expressing BPV1 E2 and an HPV18 LCR luciferase reporter
Knock-down reagent: siRNA pool against human genes, 40 nM
Timing: 72 h
Measured: 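Per-well luciferase luminescence, z-scored on each plate against the plate mean and SD with control wells left out, then averaged across three replicate plates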
Direction: mean z-score and z-score: higher = stronger reporter signal, weaker E2 silencing
Call rule: 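Mean z ≥ 2 together with z ≥ 2 in two or more of the three replicates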

gene,pool no.,mean z-score,"z-score, replicate A","z-score, replicate B","z-score, replicate C",outcome
OR2T3 (olfactory receptor family 2 subfamily T member 3),1,-0.24,-0.63,-0.2,0.12,inactive
ADAM32 (ADAM metallopeptidase domain 32),1,-0.27,-0.51,0.07,-0.36,inactive
STX7 (syntaxin 7),1,0.59,0.71,0.49,0.58,inactive
KRT9 (keratin 9),1,-0.28,-0.59,0.14,-0.39,inactive
MAPK1 (mitogen-activated protein kinase 1),1,0.87,1.16,0.73,0.72,inactive
ABRACL (ABRA C-terminal like),1,0.76,1.23,0.87,0.17,inactive
TOP6BL (TOP6B like initiator of meiotic double strand breaks),1,-0.22,-0.34,-0.39,0.08,inactive
CALCR (calcitonin receptor),1,-0.84,-0.57,-0.99,-0.97,inactive
KIZ (kizuna centrosomal protein),1,-0.14,-0.77,0.14,0.2,inactive
PMF1 (polyamine modulated factor 1),1,-1.12,-1.44,-0.97,-0.94,inactive
STARD4 (StAR related lipid transfer domain containing 4),1,0.26,0.21,0.33,0.24,inactive
NPM3 (nucleophosmin/nucleoplasmin 3),1,-0.94,-1.12,-0.69,-1.01,inactive
WBSCR23 (Williams-Beuren syndrome chromosome region 23),1,-0.32,-0.28,-0.21,-0.47,inactive
SIX2 (SIX homeobox 2),1,-1.58,-1.75,-1.49,-1.49,inactive
MTF2 (metal response element binding transcription factor 2),1,3.39,3.63,3.24,3.3,active
WWC2 (WW and C2 domain containing 2),1,2.04,1.63,2.3,2.19,active
LOC402188 (retired record),1,-0.84,-1.19,-0.75,-0.59,inactive
UBE2G2 (ubiquitin conjugating enzyme E2 G2),1,0.93,1.12,0.84,0.83,inactive
RHOV (ras homolog family member V),1,0.29,0.18,0.31,0.38,inactive
"NRAS (NRAS proto-oncogene, GTPase)",1,0.09,-0.15,0.2,0.22,inactive
SAG (S-antigen visual arrestin),1,0.54,0.79,0.42,0.42,inactive
KIF18A (kinesin family member 18A),1,-0.43,-0.35,-0.43,-0.51,inactive
MROH2A (maestro heat like repeat family member 2A),1,-1.33,-1.32,-1.23,-1.44,inactive
DENR (density regulated re-initiation and release factor),1,0.04,0.29,0.01,-0.18,inactive
MED29 (mediator complex subunit 29),1,0.16,-0.06,0.08,0.45,inactive
LINC00851 (long independently transcribed non-coding RNA 851),1,0.05,0.25,-0.23,0.13,inactive
SENP7 (SUMO specific peptidase 7),1,0.5,0.83,0.46,0.22,inactive
INPP5F (inositol polyphosphate-5-phosphatase F),1,-1.14,-0.73,-1.44,-1.25,inactive
RNASEH2B (ribonuclease H2 subunit B),1,0.6,1.02,0.61,0.18,inactive
LOC392993 (retired record),1,0.11,0.4,-0.06,0,inactive
MYH7 (myosin heavy chain 7),1,0.53,0.76,0.33,0.49,inactive
PRAMEF20 (PRAME family member 20),1,-2.42,-2.27,-2.24,-2.76,inactive
PSD (pleckstrin and Sec7 domain containing),1,0.52,0.28,0.51,0.77,inactive
"ASAP1 (ArfGAP with SH3 domain, ankyrin repeat and PH domain 1)",1,-0.33,-0.51,-0.15,-0.32,inactive
HSPA8P8 (heat shock protein family A (Hsp70) member 8 pseudogene 8),1,0.48,0.43,0.21,0.81,inactive
HSPA8P8 (heat shock protein family A (Hsp70) member 8 pseudogene 8),2,-0.01,0.02,0.05,-0.1,inactive
FLNA (filamin A),1,0.12,0.17,0.14,0.06,inactive
UPK1B (uroplakin 1B),1,0.18,0.16,0.11,0.29,inactive
ELK3 (ETS transcription factor ELK3),1,0.14,0.38,-0.07,0.11,inactive
RGS14 (regulator of G protein signaling 14),1,0.11,0,0.25,0.09,inactive
TTC14 (tetratricopeptide repeat domain 14),1,1.24,1.29,0.94,1.51,inactive
RHOT2 (ras homolog family member T2),1,-0.55,-0.74,-0.61,-0.31,inactive
PTPN21 (protein tyrosine phosphatase non-receptor type 21),1,-0.34,-0.33,-0.5,-0.2,inactive
NEK6 (NIMA related kinase 6),1,0.48,0.18,0.58,0.67,inactive
ANKRD2 (ankyrin repeat domain 2),1,0.42,0.53,0.33,0.4,inactive
TMEM45A (transmembrane protein 45A),1,0.65,0.98,0.61,0.35,inactive
"METTL9 (methyltransferase 9, His-X-His N1(pi)-histidine)",1,-0.17,-0.61,0.19,-0.08,inactive
WNT3A (Wnt family member 3A),1,-0.91,-0.91,-1.08,-0.75,inactive
LOC391340 (retired record),1,0.71,0.56,1.01,0.56,inactive
ICA1L (islet cell autoantigen 1 like),1,-0.09,0.03,-0.28,-0.01,inactive
ICA1L (islet cell autoantigen 1 like),2,0.68,0.52,0.49,1.04,inactive
PPT2 (palmitoyl-protein thioesterase 2),1,-1.43,-1.26,-1.38,-1.65,inactive
DDX53 (DEAD-box helicase 53),1,0.72,0.81,0.51,0.84,inactive
DND1 (DND microRNA-mediated repression inhibitor 1),1,-1.19,-1.45,-0.94,-1.18,inactive
SLC22A11,1,-0.27,-0.61,-0.29,0.09,inactive
DDX50 (DExD-box helicase 50),1,-1.12,-1.31,-0.75,-1.29,inactive
"ABRAXAS1 (abraxas 1, BRCA1 A complex subunit)",1,-1.15,-1.44,-1.15,-0.86,inactive
LOC399851 (retired record),1,-0.91,-0.68,-1.01,-1.04,inactive
"DEGS2 (delta 4-desaturase, sphingolipid 2)",1,0.25,0.21,0.34,0.18,inactive
ZNF668 (zinc finger protein 668),1,1.82,1.97,2.19,1.3,inactive
STARD5 (StAR related lipid transfer domain containing 5),1,-0.3,-0.77,-0.06,-0.06,inactive
CCDC117 (coiled-coil domain containing 117),1,-0.73,-0.18,-1.07,-0.94,inactive
ANKRD1 (ankyrin repeat domain 1),1,-0.31,-0.68,-0.19,-0.05,inactive
NAAA (N-acylethanolamine acid amidase),1,-0.08,0.53,-0.07,-0.71,inactive
CPEB3 (cytoplasmic polyadenylation element binding protein 3),1,0.81,0.81,0.73,0.9,inactive
CNOT6 (CCR4-NOT transcription complex subunit 6),1,-0.04,0.25,-0.1,-0.27,inactive
LINC00965 (long independently transcribed non-coding RNA 965),1,0.43,0.4,0.39,0.51,inactive
CDCA5 (cell division cycle associated 5),1,-1.89,-1.84,-1.92,-1.93,inactive
CDCA5 (cell division cycle associated 5),2,0.31,-0.26,0.56,0.63,inactive
OSBPL2 (oxysterol binding protein like 2),1,0.06,-0.17,0.22,0.13,inactive
OSBPL2 (oxysterol binding protein like 2),2,2.1,1.59,2.04,2.67,active
ZFY (zinc finger protein Y-linked),1,1.73,1.71,1.3,2.18,inactive
SERTAD1 (SERTA domain containing 1),1,1.24,1.29,1.39,1.04,inactive
